Pooled drug test results. Numbers come from NIAID ChemDB, via PubChem.

All rows: whole-cell or culture tests; species: HIV-1; measure: fold resistance

Rows are shuffled and stem from different studies. An empty or dashed field is not shown. Fold resistance: result on the changed form divided by that on wild type.

SMILES	strain or isolate	mutations	cells	method	result
CC(C)=CCN1Cc2cc(Cl)cc3[nH]c(=S)n(c23)C[C@@H]1C	RTMC	RT-D67N K70R T215Y K219Q	HT4 + HT4 LacZ-1	plaque count	1.45
O=c1[nH]cnc2c1ncn2[C@H]1CC[C@@H](CO)O1	JF26 (RT M41L D67N T69D L210W T215Y)	RT-M41L D67N T69D L210W T215Y	HELA-CD4+	plaque count	0.83
Nc1nc2c(ncn2[C@H]2CO[C@@H](CO)O2)c(=O)[nH]1	RT-75M RT-184V	RT-V75M M184V			0.3
CCc1c(Sc2ccccn2)n(COCc2ccccc2)c(=O)[nH]c1=O	Calanolide A-resistant (RT T139I)	RT-T139I	CEM + CEM-SS	XTT	0.25
N#Cc1cc2[nH]c3ccccc3c2n(-c2ccc([N+](=O)[O-])cc2)c1=O	NNRTI-resistant	RT-Y188L	HeLa	luciferase	0.6
Cc1occc1C(=S)Nc1ccc(Cl)c(/C=N/OC(C)(C)C)c1	E BPTU-resistant (RT Y181C)	RT-Y181C	CEM + CEM-SS	cytopathic effect / XTT	0.3
Nc1nc(NC2CC2)c2ncn([C@H]3C=C[C@@H](CO)C3)c2n1	Recombinant	RT-V118I M184V	HeLa	luciferase	4.9
Cc1cn([C@H]2C=C[C@@H](CO)O2)c(=O)[nH]c1=O	NL4-3	RT-M184V	MAGI (CCR5) + MAGI	β-galactosidase	0.88
CC(C)(C)C(=O)c1sc(C(=O)NCCc2ccccc2)c(O)c1O		INTG-S153 N155S			2
Nc1ncnc2c1ncn2CCOCP(=O)(O)O	DXG 9X(RT-L74V)	RT-L74V			1
Cc1cn([C@H]2C[C@H](N=[N+]=[N-])[C@@H](CO)O2)c(=O)[nH]c1=O	NL4-3	RT-A98G	CEM + CEM-SS	XTT	10
Cc1cn([C@H]2C=C[C@@H](CO)O2)c(=O)[nH]c1=O	RT-68G 151M 215Y	RT-S68G Q151M T215Y			23
COc1cc(C(F)(F)F)cc(S(=O)(=O)c2cccc(N)c2C#N)c1		RT-L100I K103N	HeLa + HELA CD4+	β-galactosidase	1360
CC(=O)c1ccc(C)cc1NC(C(N)=O)c1c(Cl)cccc1Cl	IIIB	RT-E138K	MAGI	MTT	1.18
CC(C)(C)C(=O)c1sc(C(=O)NCc2ccccc2)c(O)c1O		INTG-T66I N155S			25
Cc1cc(Br)cc(S(=O)(=O)c2cccc(N)c2C#N)c1		RT-L100I K103N	HeLa + HELA CD4+	β-galactosidase	273
Cc1ccnc2c1NC(=O)c1cccnc1N2C1CC1	Thiazolobenzimidazole-resistant (RT V108I)	RT-V108I	CEM + CEM-SS	cytopathic effect / XTT	30
C[C@H](Cn1cnc2c(N)ncnc21)OCP(=O)(O)O	Saquinavir-resistant (G48V L90M)	RT-G48V L90M	MT-2	p24	0.565
Cc1cc(Cl)cc(S(=O)(=O)c2cccc(N)c2C#N)c1		RT-K103N P225H	HeLa + HELA CD4+	β-galactosidase	2110
Nc1nc2c(ncn2[C@H]2CO[C@@H](CO)O2)c(=O)[nH]1		RT-M184V T215Y K219Q			~1.8
Nc1ccn([C@H]2CC[C@@H](CO)O2)c(=O)n1	RTMC(184) (RT D67N K70R M184V T215F K219Q)	RT-D67N K70R M184V T215F K219Q	HT4 + HT4 LacZ-1	plaque count	3.83
Cc1cc(S(N)(=O)=O)ccc1NC(=O)COc1ccc(Cl)cc1C(=O)c1cc(Cl)cc(C#N)c1	NNRTI-resistant (RT K103N V108I)	RT-K103N V108I	MAGI	β-galactosidase	1.2
Cc1ccc(S(=O)(=O)N(CC(C)C)C[C@@H](O)[C@H](Cc2ccccc2)NC(=O)O[C@H]2CO[C@H]3OCC[C@H]32)cc1	IIIB	I401T	MT-2	p24 / ELISA	1.8
O=S(=O)(c1ccccc1)c1ccccc1	UC10-resistant (RT Y181C K101E)	RT-Y181C K101E	CEM + CEM-SS	cytopathic effect / XTT	>16.3
Cc1ccnc2c1NC(=O)c1cccnc1N2C1CC1	E BPTU-resistant (RT Y181C)	RT-Y181C	CEM + CEM-SS	XTT	190
Cc1cn([C@H]2C[C@H](N=[N+]=[N-])[C@@H](CO)O2)c(=O)[nH]c1=O		INTG-Q148K			1
C/C=C/CSc1cc(NC(=S)c2ccsc2C)ccc1Cl	3TC-RS (RT-M184I)	RT-M184I	CEM + CEM-SS	cytopathic effect / XTT	0.5
Cc1cn([C@H]2C[C@H](N=[N+]=[N-])[C@@H](CO)O2)c(=O)[nH]c1=O	IIIB	LPV-P31 lopinavir-resistant mutant	MT-2	ATP	1.3
Nc1nc(=O)n([C@@H]2CS[C@H](CO)O2)cc1F	HXB2	RT-M184V	HT4 + HT4 LacZ-1	plaque count	>5560
Cc1cc(O)cc(S(=O)(=O)c2cccc(N)c2C#N)c1		RT-E138K	HeLa + HELA CD4+	β-galactosidase	1.27
CCN(c1nc(F)ccc1NC(C)(C)C)C1CCN(C(=O)c2cc3cc(NC(=O)N4CCN(C)CC4)ccc3[nH]2)CC1	IIIB	K112M K113E V128I M200I H219P	MT-2	p24 / ELISA	2.4
Cn1c2ccccc2c2c1cc(C#N)c(=O)n2-c1ccc([N+](=O)[O-])cc1	NNRTI-resistant	RT-V106I Y188L	HeLa	luciferase	0.3
C#C[C@@]1(CO)C=C[C@H](n2cc(C)c(=O)[nH]c2=O)O1	HXB2	RT-M184V	MAGI (CCR5) + MAGI	β-galactosidase	11.3

For reference, 4 entries again:

SMILES,strain or isolate,mutations,cells,method,result
O=c1[nH]cnc2c1ncn2[C@H]1CC[C@@H](CO)O1,JF26 (RT M41L D67N T69D L210W T215Y),RT-M41L D67N T69D L210W T215Y,HELA-CD4+,plaque count,0.83
Cc1cn([C@H]2C[C@H](N=[N+]=[N-])[C@@H](CO)O2)c(=O)[nH]c1=O,,INTG-Q148K,,,1
Cc1cc(Br)cc(S(=O)(=O)c2cccc(N)c2C#N)c1,,RT-L100I K103N,HeLa + HELA CD4+,β-galactosidase,273
Cc1occc1C(=S)Nc1ccc(Cl)c(/C=N/OC(C)(C)C)c1,E BPTU-resistant (RT Y181C),RT-Y181C,CEM + CEM-SS,cytopathic effect / XTT,0.3